Where two headings read alike, the source gives them in different places.
What was measured:
[1] = system: RVFV MP-12; test: RVFV RNA by qPCR, rat cortical neurons; format: cell-based, Rift Valley fever virus; details: vehicle = 1
[2] = system: Ifit2, Cxcl10, Tnfa, Cxcl1 RNA; test: ISG and inflammatory gene expression by qPCR, rat cortical neurons; format: cell-based; details: Fig 4C, vehicle = 1
[3] = system: La Crosse virus (LACV); test: LACV RNA by qPCR, rat neurons; format: cell-based; details: Fig 3G, vehicle = 1
[4] = system: RVFV MP-12; details: Fig 4M
[5] = system: California Encephalitis virus (CEV); test: CEV titers by plaque assay, U2OS; details: Fig 3M
[6] = system: Punta Toro virus-Balliet (PTV); test: PTV titers by plaque assay, U2OS; details: Fig 3N
[7] = system: La Crosse virus (LACV); test: LACV titers by plaque assay, U2OS; details: Fig 3L
[8] = system: California Encephalitis virus (CEV); test: CEV titers by plaque assay, rat neurons; details: Fig 3K
[9] = system: La Crosse virus (LACV); test: LACV titers by plaque assay, rat neurons; details: Fig 3J
[10] = system: La Crosse virus (LACV); test: LACV infection, automated microscopy, rat neurons; details: Fig 3D
[11] = system: Cxcl1, Ccl2 RNA; test: Cxcl1 and Ccl2 RNA levels in the mouse brain, 3 dpi; details: for CXCL1 RNA / 28s RNA: Figure 6D; for CCL2 RNA / 28s RNA: Figure 6E

In the case of `CCCCCCCCCCCCCCCC(=O)N[C@@H](CSCC(COC(=O)CCCCCCCCCCCCCCC)OC(=O)CCCCCCCCCCCCCCC)C(=O)N[C@@H](CO)C(=O)N[C@@H](CCCCN)C(=O)N[C@@H](CCCCN)C(=O)N[C@@H](CCCCN)C(=O)N[C@@H](CCCCN)C(=O)O` (some centres unmarked) [Pam3CSK4], the “Rel. Fold change RVFV RNA” value ([1]; Fig 4F, replicate 1) is reported as 0.1384, the “Rel. Fold change RVFV RNA” value ([1]; Fig 4F, replicate 2) is reported as 0.168 and the “Rel. Fold change RVFV RNA” value ([1]; Fig 4F, replicate 3) is reported as 0.3464. The “Rel. Fold change RVFV RNA” value ([1]; Fig 4J, replicate 1) was 0.09007, the “Rel. Fold change RVFV RNA” value ([1]; Fig 4J, replicate 2) was 0.06156 and the “Rel. Fold change RVFV RNA” value ([1]; Fig 4J, replicate 3) was 0.1507. The “Rel. Fold change RVFV RNA” value ([1]; Fig 4J, replicate 4) was 0.6294, the “Rel. Fold change Tnfa RNA” value ([2]; replicate 1) was 153.268 and the “Rel. Fold change Tnfa RNA” value ([2]; replicate 2) was 368.12. The “Rel. Fold change Tnfa RNA” value ([2]; replicate 3) was 204.497, the “Rel. LACV RNA” value ([3]; replicate 1) was 0.4326 and the “Rel. LACV RNA” value ([3]; replicate 2) was 0.2042. The “Rel. LACV RNA” value ([3]; replicate 3) was 0.4611, the “Rel. LACV RNA” value ([3]; replicate 4) was 0.3402 and the “Rel. fold change RVFV infection” value ([4]; TLR2 KO, 0.3125 ug/mL, replicate 1) was 0.93. For the same compound, the “Rel. fold change RVFV infection” value ([4]; TLR2 KO, 0.3125 ug/mL, replicate 2) was 1.177, the “Rel. fold change RVFV infection” value ([4]; TLR2 KO, 0.625 ug/mL, replicate 1) was 0.8775 and the “Rel. fold change RVFV infection” value ([4]; TLR2 KO, 0.625 ug/mL, replicate 2) was 0.7719. The “Rel. fold change RVFV infection” value ([4]; TLR2 KO, 1.25 ug/mL, replicate 1) was 0.7786, the “Rel. fold change RVFV infection” value ([4]; TLR2 KO, 1.25 ug/mL, replicate 2) was 0.9358 and the “Rel. fold change RVFV infection” value ([4]; TLR2 KO, 2.5 ug/mL, replicate 1) was 0.8014. For the same compound, the “Rel. fold change RVFV infection” value ([4]; TLR2 KO, 2.5 ug/mL, replicate 2) was 0.7844, the “Rel. fold change RVFV infection” value ([4]; TLR2 KO, 5 ug/mL, replicate 1) was 0.6569 and the “Rel. fold change RVFV infection” value ([4]; TLR2 KO, 5 ug/mL, replicate 2) was 0.6113. For the same compound, the “Rel. fold change RVFV infection” value ([4]; TLR2 KO, 10 ug/mL, replicate 1) was 0.3819, the “Rel. fold change RVFV infection” value ([4]; TLR2 KO, 10 ug/mL, replicate 2) was 0.4375 and the “Rel. fold change RVFV infection” value ([4]; Wt, 0.3125 ug/mL, replicate 1) was 0.8764. For the same compound, the “Rel. fold change RVFV infection” value ([4]; Wt, 0.3125 ug/mL, replicate 2) was 0.8538, the “Rel. fold change RVFV infection” value ([4]; Wt, 0.625 ug/mL, replicate 1) was 0.9506 and the “Rel. fold change RVFV infection” value ([4]; Wt, 1.25 ug/mL, replicate 1) was 0.8641. For the same compound, the “Rel. fold change RVFV infection” value ([4]; Wt, 1.25 ug/mL, replicate 2) was 0.874, the “Rel. fold change RVFV infection” value ([4]; Wt, 2.5 ug/mL, replicate 1) was 0.7014 and the “Rel. fold change RVFV infection” value ([4]; Wt, 2.5 ug/mL, replicate 2) was 0.7506. The “Rel. fold change RVFV infection” value ([4]; Wt, 5 ug/mL, replicate 1) was 0.6199, the “Rel. fold change RVFV infection” value ([4]; Wt, 5 ug/mL, replicate 2) was 0.5672 and the “Rel. fold change RVFV infection” value ([4]; Wt, 10 ug/mL, replicate 1) was 0.3981. The “Rel. fold change RVFV infection” value ([4]; Wt, 10 ug/mL, replicate 2) was 0.4174, the CEV titers ([5]; replicate 1) was 13250 and the CEV titers ([5]; replicate 2) was 12500. The PTV titers ([6]; replicate 1) was 23000, the PTV titers ([6]; replicate 2) was 7750 and the PTV titers ([6]; replicate 3) was 24750. For the same compound, the LACV titers ([7]; replicate 1) was 13250, the LACV titers ([7]; replicate 2) was 10000 and the LACV titers ([7]; replicate 3) was 19750. For the same compound, the CEV titers ([8]; replicate 1) was 2375, the CEV titers ([8]; replicate 2) was 1350 and the CEV titers ([8]; replicate 3) was 3525. It also gave an LACV titers ([9]; replicate 1) of 11862.5, an LACV titers ([9]; replicate 2) of 13250 and an LACV titers ([9]; replicate 3) of 9000. The “LACV Rel. infection” value ([10]; 0.016 ug/mL, replicate 1) was 1.204, the “LACV Rel. infection” value ([10]; 0.016 ug/mL, replicate 2) was 1.202 and the “LACV Rel. infection” value ([10]; 0.016 ug/mL, replicate 3) was 0.905. For the same compound, the “LACV Rel. infection” value ([10]; 0.016 ug/mL, replicate 4) was 0.9894, the “LACV Rel. infection” value ([10]; 0.08 ug/mL, replicate 1) was 1.222 and the “LACV Rel. infection” value ([10]; 0.08 ug/mL, replicate 2) was 0.8362. The “LACV Rel. infection” value ([10]; 0.08 ug/mL, replicate 3) was 1.091, the “LACV Rel. infection” value ([10]; 0.08 ug/mL, replicate 4) was 1.09 and the “LACV Rel. infection” value ([10]; 0.4 ug/mL, replicate 1) was 1.01. For the same compound, the “LACV Rel. infection” value ([10]; 0.4 ug/mL, replicate 2) was 0.844, the “LACV Rel. infection” value ([10]; 0.4 ug/mL, replicate 3) was 0.9873 and the “LACV Rel. infection” value ([10]; 0.4 ug/mL, replicate 4) was 1.219. For the same compound, the “LACV Rel. infection” value ([10]; 2 ug/mL, replicate 1) was 0.7495, the “LACV Rel. infection” value ([10]; 2 ug/mL, replicate 2) was 0.6058 and the “LACV Rel. infection” value ([10]; 2 ug/mL, replicate 3) was 0.8588. For the same compound, the “LACV Rel. infection” value ([10]; 2 ug/mL, replicate 4) was 0.8649, the “LACV Rel. infection” value ([10]; 10 ug/mL, replicate 1) was 0.4386 and the “LACV Rel. infection” value ([10]; 10 ug/mL, replicate 2) was 0.05115. For the same compound, the “LACV Rel. infection” value ([10]; 10 ug/mL, replicate 3) was 0.2729, the “LACV Rel. infection” value ([10]; 10 ug/mL, replicate 4) was 0.3517 and the “CXCL1 RNA / 28s RNA” value ([11]; 1 PFU, mouse 1) was 3.42E-05. The “CXCL1 RNA / 28s RNA” value ([11]; 1 PFU, mouse 2) was 5.70E-05, the “CXCL1 RNA / 28s RNA” value ([11]; 1 PFU, mouse 3) was 2.08E-05 and the “CXCL1 RNA / 28s RNA” value ([11]; 5 PFU, mouse 1) was 7.88E-05. The “CXCL1 RNA / 28s RNA” value ([11]; 5 PFU, mouse 2) was 8.05E-05, the “CXCL1 RNA / 28s RNA” value ([11]; 5 PFU, mouse 3) was 5.49E-05 and the “CCL2 RNA / 28s RNA” value ([11]; 1 PFU, mouse 1) was 3.02E-06. The “CCL2 RNA / 28s RNA” value ([11]; 1 PFU, mouse 2) was 4.98E-06, the “CCL2 RNA / 28s RNA” value ([11]; 1 PFU, mouse 3) was 1.48E-06 and the “CCL2 RNA / 28s RNA” value ([11]; 5 PFU, mouse 1) was 6.43E-06. The “CCL2 RNA / 28s RNA” value ([11]; 5 PFU, mouse 2) was 5.03E-06 and the “CCL2 RNA / 28s RNA” value ([11]; 5 PFU, mouse 3) was 3.39E-06.
